Compound potency records, mixed from different reports. Data source: NIAID ChemDB in PubChem.

Shared fields: growth or infection tests; organism: Aspergillus niger; endpoint: zone

Zones are inhibition diameters on agar. Conditions beyond the fields shown may differ between rows. An empty or dashed field is not shown.

compound | strain | read by | tested at | result
Cc1nc2ccccc2n(CC(=O)NN2C(=O)CSC2c2ccc(N(C)C)cc2)c1=O | - | - | 100 µg/mL | 17 mm
CC[C@H](CC[C@@H](C)[C@H]1CCC2C3CC=C4CC(O)CC[C@]4(C)C3CC[C@@]21C)C(C)C | ATCC 16404 | agar diffusion | 500 µg/mL | 0 mm
COc1ccc(C2CC(=O)C3=C(C2)OC2=C(C(=O)CC(c4ccc(OC)c(OC)c4)C2)C3c2ccc(C3C4=C(CC(c5ccc(OC)c(OC)c5)CC4=O)OC4=C3C(=O)CC(c3ccc(OC)c(OC)c3)C4)cc2)cc1OC | ATCC 10949 | agar diffusion | 140 µg/disc | 0 mm
CC(=O)Nc1ccc(F)cc1Sc1ncccc1[N+](=O)[O-] | MTCC 282 | - | 100 µg/mL | 18 mm
Cc1ccc(S(=O)(=O)CNc2oc3[nH]c(=O)[nH]c(=O)c3c2-c2ccc(O)cc2)cc1 | - | agar diffusion / agar | 100 µg/mL | 3 mm
O=C(NN=CC1C(c2ccccc2)=Nc2ccccc21)N1c2ccccc2C=Cc2ccccc21 | MTCC 281 | agar diffusion | 500 µg/mL | 5 mm
CC1(C)CCC2=C(C1=O)C(c1cccc(C3C4=C(CCC(C)(C)C4=O)OC4=C3C(=O)C(C)(C)CC4)c1)C1=C(CCC(C)(C)C1=O)O2 | ATCC 10949 | agar diffusion | 140 µg/disc | 7 mm
Cc1c(Cc2ccc(Cl)cc2)[nH]c(=S)[nH]c1=O | NRRL 599 | agar diffusion / agar | 200 µg/disc | <10 mm
c1ccc2c(c1)Sc1cccnc1N2CCCCCCN1c2ccccc2Sc2cccnc21 | MTCC 282 | - | 100 µg/mL | 11 mm
O=[N+]([O-])c1ccc2nc(C(F)(F)F)n(CCCCCl)c2c1 | MTCC 1344 | - | 500 µg/mL | 650 mm
CC(=O)Nc1nc(C)c(-c2n[nH]c(=S)n2N2C(=O)CSC2c2ccc(C)cc2)s1 | - | agar diffusion | 100 µg/mL | 20 mm
CC1(C)CC(=O)C2=C(C1)OC1=C(C(=O)CC(C)(C)C1)C2c1cccc(C2C3=C(CC(C)(C)CC3=O)OC3=C2C(=O)CC(C)(C)C3)c1 | ATCC 10949 | agar diffusion | 20 µg/mL | 0 mm
CC(=O)Nc1nc(C)c(-c2n[nH]c(=S)n2N2C(=O)CSC2c2ccc(Br)cc2)s1 | - | agar diffusion | 100 µg/mL | 22 mm
Cc1ccc2c(c1)C(C1SCC(=O)N1NC(=O)N1c3ccccc3C=Cc3ccccc31)C(c1ccccc1)=N2 | MTCC 281 | agar diffusion | 750 µg/mL | 2 mm
CC(=O)OCC1=C/[C@@H]2OC(=O)[C@H](C)[C@@]2(O)[C@@H](OC(C)=O)[C@H]2[C@@]3(CO3)[C@H](OC(=O)CC(C)C)C[C@H](OC(=O)CC(C)C)[C@]2(C)[C@@H](OC(C)=O)/C=C\1 | - | agar diffusion / agar | 200 µg/mL | 8 mm
CCCCOCc1c(O)cc2c(c1O)C(=O)c1ccccc1C2=O | - | agar diffusion | 13.3 µg/disc | 0 mm
O=C1CCCC2=C1C(c1cccc(C3C4=C(CCCC4=O)OC4=C3C(=O)CCC4)c1)C1=C(CCCC1=O)O2 | ATCC 10949 | agar diffusion | 40 µg/disc | 0 mm
C=C1CC[C@@H](OC(C)=O)[C@]2(C)[C@H](OC(C)=O)[C@H](OC(=O)CC(C)C)[C@H](OC(C)=O)[C@@]3(CO3)[C@H]2[C@@H](OC(C)=O)[C@@]2(O)[C@H](C)C(=O)O[C@H]2[C@H]1Cl | - | agar diffusion / agar | 200 µg/mL | 10 mm
O=C1c2ccccc2C(=O)c2c1cc(O[C@@H]1O[C@H](CO[C@@H]3OC[C@@H](O)[C@H](O)[C@H]3O)[C@@H](O)[C@H](O)[C@H]1O)c(CO)c2O | - | agar diffusion | 13.3 µg/disc | 0 mm
CC(=O)Nc1ccc(Cl)cc1Sc1ncccc1[N+](=O)[O-] | MTCC 282 | - | 100 µg/mL | 14 mm
COc1c(CO)c(O)cc2c1C(=O)c1ccccc1C2=O | - | agar diffusion | 13.3 µg/disc | 0 mm
COc1ccc(C2SCC(=O)N2NC(=O)Cn2c(=O)c(C)nc3ccccc32)cc1OC | - | - | 50 µg/mL | 10 mm
Cc1ccc(S(=O)(=O)CNc2oc3[nH]c(=O)[nH]c(=O)c3c2-c2ccc(Cl)cc2)cc1 | - | agar diffusion / agar | 50 µg/mL | 2 mm
Cc1ccc(N2NOC(=O)C2S(=O)(=O)Nc2ccc(-n3c(-c4ccccc4[N+](=O)[O-])nc4ccccc4c3=O)cc2)cc1 | MTCC 282 | agar diffusion | 250 µg/mL | 24 mm
Fc1ccc2c(c1)Sc1cccnc1N2CCCCN1c2ccc(F)cc2Sc2cccnc21 | MTCC 282 | - | 100 µg/mL | 11 mm
CCc1c(Cc2ccc(C)cc2)[nH]c(=S)[nH]c1=O | NRRL 599 | agar diffusion / agar | 200 µg/disc | <10 mm
Cc1nc2ccccc2n(CC(=O)NN2C(=O)CSC2c2ccc(C(F)(F)F)cc2)c1=O | - | - | 100 µg/mL | 22 mm
CCc1c(Cc2ccc(Cl)cc2)nc(SCCCN2C(=O)c3ccccc3C2=O)[nH]c1=O | NRRL 599 | agar diffusion / agar | 200 µg/disc | <10 mm
CC(C)n1c(/C=C/C=Nn2cn[nH]c2=S)c(-c2ccc(F)cc2)c2ccccc21 | - | - | 500 µg/mL | 13 mm
Cc1ccc(S(=O)(=O)CNc2oc3[nH]c(=O)[nH]c(=O)c3c2-c2ccc([N+](=O)[O-])cc2)cc1 | - | agar diffusion / agar | 100 µg/mL | 7 mm
CCc1c(Cc2ccc(OC)c(OC)c2)nc(SCCN2CCCC2)[nH]c1=O | NRRL 599 | agar diffusion / agar | 200 µg/disc | 31 mm
Cc1ccc(N2NOC(=O)C2S(=O)(=O)Nc2nc3ccc(Br)cc3s2)cc1 | MTCC 282 | agar diffusion | 250 µg/mL | 21 mm
Cc1nc2ccccc2n(CC(=O)NN2C(=O)CSC2c2ccc(Cl)cc2)c1=O | - | - | 100 µg/mL | 19 mm
O=[N+]([O-])c1ccc2c(c1)nc(C(F)(F)F)n2CCCCl | MTCC 1344 | - | 500 µg/mL | 300 mm
CC(=O)Nc1nc(C)c(-c2n[nH]c(=S)n2N2C(=O)CSC2c2ccc(F)cc2)s1 | - | agar diffusion | 100 µg/mL | 12 mm
CC[C@H](/C=C/[C@@H](C)[C@H]1CCC2C3CC=C4CC(O[C@@H]5O[C@H](CO)[C@@H](O)[C@H](O)[C@H]5O)CC[C@]4(C)C3CC[C@@]21C)C(C)C | ATCC 16404 | agar diffusion | 500 µg/mL | 0 mm
CCc1c(Cc2ccc(Cl)cc2)nc(SCCN2CCCC2)[nH]c1=O | NRRL 599 | agar diffusion / agar | 200 µg/disc | 13 mm
Cc1ccc(N2NOC(=O)C2S(=O)(=O)Nc2ccc(-n3c(-c4ccccc4Cl)nc4ccccc4c3=O)cc2)cc1 | MTCC 282 | agar diffusion | 250 µg/mL | 22 mm
Clc1ccccc1C(c1ccccc1)(c1ccccc1)n1ccnc1 | NRRL 599 | agar diffusion / agar | 200 µg/disc | 40 mm
O=C(NN1C(=O)CSC1C1C(c2ccccc2)=Nc2ccc(Cl)cc21)N1c2ccccc2C=Cc2ccccc21 | MTCC 281 | agar diffusion | 500 µg/mL | 12 mm
CCOC(=O)Cn1c(C(F)(F)C(F)(F)F)nc2cc(C(=O)c3ccccc3)ccc21 | MTCC 1344 | - | 500 µg/mL | 1000 mm
CCCCOc1ccc(-c2csc(NS(=O)(=O)C3C(=O)ONN3c3ccc(C)cc3)n2)cc1 | MTCC 282 | agar diffusion | 250 µg/mL | 24 mm
CCc1c(Cc2ccc(OC)c(OC)c2)[nH]c(=S)[nH]c1=O | NRRL 599 | agar diffusion / agar | 200 µg/disc | <10 mm
C=CC(C)(O)CC/C=C(\C)CCC=C(C)C | ATCC 16404 | agar diffusion | 500 µg/mL | 16.2 mm
CCOC(=O)Cn1c(C(F)(F)F)nc2cc(C(=O)c3ccccc3)ccc21 | MTCC 1344 | - | 500 µg/mL | 800 mm

The last 5 rows once more:

{"compound": "CCOC(=O)Cn1c(C(F)(F)C(F)(F)F)nc2cc(C(=O)c3ccccc3)ccc21", "strain": "MTCC 1344", "tested at": "500 µg/mL", "result": "1000 mm"}
{"compound": "CCCCOc1ccc(-c2csc(NS(=O)(=O)C3C(=O)ONN3c3ccc(C)cc3)n2)cc1", "strain": "MTCC 282", "read by": "agar diffusion", "tested at": "250 µg/mL", "result": "24 mm"}
{"compound": "CCc1c(Cc2ccc(OC)c(OC)c2)[nH]c(=S)[nH]c1=O", "strain": "NRRL 599", "read by": "agar diffusion / agar", "tested at": "200 µg/disc", "result": "<10 mm"}
{"compound": "C=CC(C)(O)CC/C=C(\\C)CCC=C(C)C", "strain": "ATCC 16404", "read by": "agar diffusion", "tested at": "500 µg/mL", "result": "16.2 mm"}
{"compound": "CCOC(=O)Cn1c(C(F)(F)F)nc2cc(C(=O)c3ccccc3)ccc21", "strain": "MTCC 1344", "tested at": "500 µg/mL", "result": "800 mm"}